How the values were obtained:
[1] = Bioavailability of SP16 in mouse brain after intranasal delivery, LC/MS-MS; assay type: in vivo; details: adult C57BL/6J mice, 10 µg/kg intranasal
Description: C57BL/6J mice (Jackson Laboratory, Bay Harbor, ME, USA) were bred in the animal facility at Florida International University. Mice were placed 3–5 per cage and maintained in a controlled temperature and humidity room. The animals were cared for in accordance with the Principles of Animal Care outlined by the National Institutes of Health and approved by the Institutional Animal Care and Use Committee of Florida International University. Protocol Approval: IACUC-21-007-CR01. The EcoHIV-NDK plasmid used was provided by Dr. David Volsky at Mount Sinai school of medicine. The plasmid was transfected in HEK293T cells to generate EcoHIV stocks as previously described. For the in vivo experiments, male mice between the ages of 4–6 months were administrated 1 mL of either saline or 1 × 10^6 pg p24 units of EcoHIV by intraperitoneal (IP) cavity. After 3–4 weeks, animals received cART daily via IP administration. The cART regimen consisted of Emtricitabine, Ritonavir, and Atazanavir at a concentration of 100 mg/kg each, based on previously published literature by others. […] Bioavailability of SP16 in the brain was monitored with LC-MS/MS using 703 (triple charged) parent ion and its two daughter ions 129.1 and 84.1. […]
acetonitrile containing Oxazepam-D5 and subsequently quantified by high-performance LC/MS-
MS. About 125 nmol/L of SP16 (or 40% of the original concentration) was detected in brain […]

HIV-1SF162 = assay: HIV p24 gag protein ELISA in astrocytes; assay type: cell-based; details: HIV-infected astrocytes; 25 μg/mL SP16; 6 and 12 h
EcoHIV = assay: p24 gag in brain homogenates of EcoHIV-infected mice, ELISA; assay type: in vivo, EcoHIV-NDK; details: SP16 10 μg/kg intranasal added to cART, brain homogenate
microglia = assay: ELISA of inflammatory molecules in microglia supernatant; assay type: cell-based, human; details: 12 h
primary human astrocytes = assay: ELISA of inflammatory molecules in astrocyte supernatant; assay type: cell-based; details: for reduction of HIV-induced MCP-1: 1 μg/mL SP16
human primary astrocytes = assay: Western blotting of LRP-1, NF-κB and Akt in astrocytes; assay type: cell-based; details: 12 h
[2] = test system: EcoHIV-infected mouse brain; assay: Immunoblotting of LRP-1, NF-κB and Akt in brains of EcoHIV-infected mice; assay type: in vivo, C57BL/6J mice
Protocol: Proteins in brain cell lysates and postmortem brain homogenates were separated by SDS-PAGE, transferred to PVDF membranes, and subsequently incubated with primary antibodies from Santa Cruz Biotechnology (Dallas, TX, USA), including NF-κB at 1:200 dilution (catalog # sc-8008) and β-actin at 1:200 dilution (catalog # sc-47778). Antibodies from Abcam (Boston, MA, USA), including Akt at dilution 1:500 (catalog # ab-38449) and LRP-1 at dilution 1:50,000 (catalog # ab-92544). After primary antibodies, membranes were incubated with horseradish peroxidase-conjugated secondary antibodies followed by exposure to SuperSignal West Femto Substrate from Thermo Scientific (Waltham, MA, USA). Membranes were visualized using a ChemiDoc imaging system from Bio-Rad (Hercules, CA, USA) and protein expression was calculated using Image J software from NIH (Bethesda, MD, USA).
C57BL/6J mice (Jackson Laboratory, Bay Harbor, ME, USA) were bred in the animal facility at Florida International University. Mice were placed 3–5 per cage and maintained in a controlled temperature and humidity room. The animals were cared for in accordance with the Principles of Animal Care outlined by the National Institutes of Health and approved by the Institutional Animal Care and Use Committee of Florida International University. Protocol Approval: IACUC-21-007-CR01. The EcoHIV-NDK plasmid used was provided by Dr. David Volsky at Mount Sinai school of medicine. The plasmid was transfected in HEK293T cells to generate EcoHIV stocks as previously described. For the in vivo experiments, male mice between the ages of 4–6 months were administrated 1 mL of either saline or 1 × 10^6 pg p24 units of EcoHIV by intraperitoneal (IP) cavity. After 3–4 weeks, animals received cART daily via IP administration. The cART regimen consisted of Emtricitabine, Ritonavir, and Atazanavir at a concentration of 100 mg/kg each, based on previously published literature by others. A subset of cART treated animals received SP16 every other day at concentration of 10 μg/kg, via the intranasal route, as described previously by us. After treatments (at day 5), mice were sacrificed and whole brains, excluding the brainstem and the olfactory bulb, were collected. Half of the recovered brain hemisphere was used for immunohistochemistry and LC-MS/MS while the other half was homogenized and used for biochemical assays. For protein biochemical assays, postmortem brains were homogenized in cell lysis buffer (Thermo Scientific, Waltham, MA, USA) using a bead-beater apparatus (MagNA Lyser, Roche, Indianapolis). Bioavailability of SP16 in the brain was monitored with LC-MS/MS using 703 (triple charged) parent ion and its two daughter ions 129.1 and 84.1. For the in vitro murine experiments, primary mixed glia cultures composed of astrocytes (~80% GFAP immune-positive cells) and microglia (~20% Iba-1 immuno-positive cells) were recovered from midbrains of C57BL/6J pups scarified according to IACUC guidelines as described previously. Cells were seeded in 24-well plates coated with poly-L-lysine (0.1 mg/mL) and maintained for 5–10 days at 37 °C and 5% CO2 [39, 40, 41, 42]. Cells were maintained in their respective growth medium, supplemented with glucose (2 mg/mL) procured from Sigma Aldrich (St. Louis, MO, USA), Na2HCO3 (6 mM) procured from Invitrogen (Waltham, MA, USA), fetal bovine serum-FBS (10%) procured from Hyclone (Logan, UT, USA), and penicillin/streptomycin (1%) procured from Invitrogen (Waltham, MA, USA). […]

[3] = microglia without the BBB insert, SP16 1 and 100 µg/mL
[4] = astrocytes, 100 µg/mL SP16, 12 h, without LRP-1 silencing
[5] = combination SP16 and cART, brain immunoblotting
[6] = label cART = cART alone, label SP16 = cART in combination with SP16

## CCCC[C@H](NC(=O)[C@H](CC(C)C)NC(=O)[C@H](Cc1ccccc1)NC(=O)[C@@H](NC(=O)[C@H](Cc1ccccc1)NC(=O)[C@@H]1CCCN1C(=O)[C@H](CCCCN)NC(=O)[C@H](CC(N)=O)NC(=O)[C@H](Cc1ccccc1)NC(=O)[C@H](CCCCN)NC(=O)[C@@H](NC(C)=O)C(C)C)C(C)C)C(=O)N[C@H](C(=O)N[C@@H](CCC(=O)O)C(=O)N[C@@H](CCC(N)=O)C(=O)N[C@@H](CC(N)=O)C(=O)N[C@H](C(=O)N[C@@H](CCCCN)C(N)=O)[C@@H](C)O)[C@@H](C)CC [SP16]
[1]; 24 hours, N=2
  SP16 in brain homogenates as share of the original concentration: ~40%
[1]; mouse, in vivo, inhaled or intranasal, 10 ug/kg, 20 μL in each nostril, acetonitrile extraction, N=2, read-out: SP16 detected in brain homogenates
  level at time molar at 24 h: ~125 nM
HIV-1SF162
  reduction of viral titer, HIV p24 gag protein: about 50%
EcoHIV
  further decrease in p24 gag after exposure with SP16: 19%
microglia; microglia with the BBB inserts, SP16 added to luminal surface
  IL-8: unaffected
microglia; [3]
  secretion of IL-6: decreased
  secretion of IL-8: decreased
microglia; non-infected and HIV-infected microglia, plates with and without BBB, SP16 1 and 100 µg/mL, mean of 3 independent experiments
  decrease in secretion of MCP-1: more than 50%
Primary human astrocytes; HIV-infected astrocytes, 6 h
  reduction of HIV-induced MCP-1: 65%
Primary human astrocytes; HIV-infected astrocytes, 12 h
  reduction of HIV-induced MCP-1: 63%
Primary human astrocytes; HIV-infected astrocytes, 12 h, SP16 at 1 μg/mL
  HIV-induced IL-6: Attenuation
Primary human astrocytes; HIV-infected astrocytes, 12 h, SP16 at 25 μg/mL
  HIV-induced IL-8: Attenuation
Primary human astrocytes; [4]
  secreted levels of IL-6: significantly decreased
  secreted levels of IL-8: significantly decreased
  secreted levels of MCP-1: significantly decreased
Primary human astrocytes; astrocytes, siRNA against LRP-1, 48 h post-transfection, SP16 100 µg/mL, 12 h
  secretion levels of MCP-1, IL-6 and IL-8 after silencing the LRP-1 gene: reversal
Primary human astrocytes; primary human astrocytes, concentration-dependent, 6 and 12 h post-treatment, ELISA
  attenuation of secretion of MCP-1: more than 90%
Human primary astrocytes; astrocytes, 25 μg/mL SP16
  expression level of NF-κB: no significant changes
Human primary astrocytes; astrocytes, SP16 100 and 250 μg/mL (100 μg/mL), β-actin also reduced at 250 μg/mL
  expression levels of NF-κB: significantly reduced
Human primary astrocytes; infected and non-infected astrocytes, 25 μg/mL SP16
  expression levels of Akt: upregulated
[2]; [5]
  decrease in NF-κB as compared to cART alone: about 86%
  increase in Akt as compared to cART: about 18%
[2]; [6]
  LRP-1 expression: significant increase
  expression of Akt: increase
  protein expression level of NF-κB: significant decrease

Reference: PMC9954444, “SERPIN-Derived Small Peptide (SP16) as a Potential Therapeutic Agent against HIV-Induced Inflammatory Molecules and Viral Replication in Cells of the Central Nervous System” (Cells, 2023)
